According to EP4314010B1, “MODIFIED PEPTIDOMIMETICS AND METHODS OF USE” (dated 2026):
The match of structure and compound is tentative.

Tests used:
P. aeruginosa [1] = assay: P. aeruginosa infection in WT mice, comparison with other agents; details: WT mice infected with P. aeruginosa
Text: We then infected WT mice with P. aeruginosa and treated with ELD607, the Orai1 small molecule antagonist YM-58453, dexamethasone or scrambled ELD607.

P. aeruginosa [2] = assay: Murine model of P. aeruginosa bacterial pneumonia
Method: Further in vivo experiments were performed. Mice were treated intratracheally with 10^7 colony forming units (CFU) of P. aeruginosa 1 hour prior to intranasal treatment with 0.51 mg/kg peptide, in a murine model of bacterial pneumonia. Bronchoalveolar lavage (BAL) and organ collection was performed 24 hours following treatment with peptide (FIG. 15A). […] Moreover, 24 h after infection, about 10^9 CFUs could be detected in murine whole lung homogenate. However, ELD607 caused an ~5 log10 reduction in lung bacteria (FIG. 15D).
Bronchoalveolar lavage (BAL) was collected from mice treated intratracheally with 10^7 colony forming units (CFU) of P. aeruginosa 1 hour prior to intranasal treatment with 0.51 mg/kg peptide, in a murine model of bacterial pneumonia, or vehicle-treated mice. […] Mice were exposed to vehicle or P. aeruginosa ± ELD607 and BAL was obtained and stained with an anti-Orai1 antibody, fluorescent 2° and DAPI. […] FIG. 16G panels B and C show plots showing fluorescent intensities of Orai1 in macrophages and neutrophils, respectively.
To examine Orai1 levels, BAL was then obtained from P. aeruginosa-infected mice, immediately cytospun, fixed in PFA and stained with an antibody against Orai1.

E. coli LPS sepsis model = details: LPS intraperitoneally; 0.5 mg/kg intravenously 1 h later
Method: We injected mice intraperitoneally with E. coli LPS, followed by 0.5 mg/kg ELD607 injected intravenously 1 h later. […] Table 1. Sequences of ELD100 peptide (reference) undergoing Alanine scan. The alternative names denote the amino acids changed and their position.

[3] = system: SARS-CoV-2 S1 pseudovirus; assay: SARS-CoV-2 S1 pseudovirus infection of ACE2-expressing HEK293T cells (DsRed); details: ACE2-overexpressing HEK293T cells
Method: During infection, increased SOCE and Orai1 activity leads to greater phosphorylation of Ca^2+-sensitive kinases (e.g., calcineurin) and activation of transcription factors (e.g., NFAT) leading to a pro-inflammatory response. […] The results were normalized to the baseline. Thapsigargin (Tg) at 1 µM was used as control. The inhibition of Ca^2+ release after scaffold peptide (ELD100; reference) addition is shown for comparison. […] The results were normalized to the baseline. Thapsigargin (Tg) at 1 µM was used as control. The inhibition of Ca^2+ release after ELD100 (reference) addition is shown for comparison. […] The results were normalized to the baseline. Thapsigargin (Tg) at 1 µM was used as control. The inhibition of Ca^2+ release after ELD100 (reference) addition is shown for comparison. […] The results were normalized to the baseline. Thapsigargin (Tg) at 1 µM was used as control. The inhibition of Ca^2+ release after ELD100 (reference) addition is shown for comparison. […] 1 h later, thapsigargin was added and the change in Fluo-4 fluorescence was measured. […] HEK293T cells were transfected with anti-Orai1 shRNA for 48 h and the change in Fluo4 fluorescence was measured. […] FIG. 16G panels B and C show plots showing fluorescence intensities of Orai1 in macrophages and neutrophils, respectively. *** p<0.001 different as indicated. […]

P. aeruginosa POA1 = assay: P. aeruginosa infection in Orai1+/- mice and WT littermate controls; details: infected and treated
Method: ELD607, but not global Orail inhibition or steroids beneficially reduce pulmonary inflammation after P. aeruginosa infection. Orai1^-/- mice have low survival rates, so we used Orai1^+/- mice that have ~70% reduced Ca^2+ influx (Gwack et al. 2008 Mol cell Biol. 28(17):5209-5222). Orai1^+/- mice infected with 10^7 CFU/mouse P. aeruginosa POA1 and treated intranasally 1 h later with 0.5 mg/kg ELD607, were not able to normalize leukocyte levels (FIG. 31, panels A-C). In contrast, WT littermate controls infected with P. aeruginosa and treated with ELD607 had reduced normalized leukocytes similar to naïve mice after ELD607 exposure (FIG. 31, panels B and C). Additionally Orai1^+/- mice infected and then treated with ELD607 were not able to clear bacterial burden in the lungs (FIG. 31, panel D).

[4] = system: mouse hepatitis virus (MHV-A59; a murine coronavirus); assay: Murine coronavirus infection model
Method: ELD607 normalized leukocyte composition and viral loads in the airways after murine coronavirus infection. Coronaviruses are emerging pathogens with severe outcomes in the human population. Mice were infected with 10^6 PFU mouse hepatitis virus (MHV-A59; a murine coronavirus) intranasally. The mice were then dosed with 1.0 mg/kg ELD607 or vehicle intranasally 4 days p.i. and then 2 days after dosing with ELD607 (6 days p.i.), mice were sacrificed to collect BAL and lung homogenates. […] Thus, ELD607 beneficially reduces inflammation in both acute and chronic models. Without wishing to be bound to theory, ELD607 may moderate local inflammation in the lung lumen to reduce neutrophilia and allow macrophages to more efficiently clear bacteria without neutrophil-elastase-mediated lung injury.

[5] = E. coli LPS acute respiratory distress syndrome (ARDS) model; details: 3 mg/kg LPS intratracheally; 0.5 mg/kg intranasally 1 or 6 h later
Method: ELD607 reduces inflammation in an acute respiratory distress syndrome (ARDS) model. Mice were intratracheally to 3 mg/kg E. coli lipopolysaccharide (LPS). 0.5 mg/kg ELD607 was instilled intranasally 1 or 6 h later. As a control, 3 mg/kg dexamethasone was given intranasally.

[6] = 10^7 CFU intratracheally, 0.51 mg/kg intranasal 1 hour later, 24 hours
[7] = 10^6 PFU intranasally, 1.0 mg/kg intranasally 4 days p.i., 6 days p.i.

Structure (SMILES): CC[C@H](C)[C@H](NC(=O)[C@H](CC(C)C)NC(=O)[C@H](CCSC)NC(=O)[C@H](CC(N)=O)NC(=O)[C@@H](NC(=O)[C@@H](NC(=O)[C@H](CC(=O)O)NC(=O)[C@H](Cc1c[nH]cn1)NC(=O)[C@@H](N)C(C)C)[C@@H](C)CC)C(C)C)C(=O)N[C@@H](CCCNC(=N)N)C(=O)NCC(=O)O
- bacterial infections (lung CFU) (P. aeruginosa [1]): significantly reduced
- neutrophilia (P. aeruginosa [1]): significantly reduced neutrophilia
- BAL monocytes (P. aeruginosa [2]; [6]): significantly retained monocyte levels
- BAL neutrophils (P. aeruginosa [2]; [6]): reduced neutrophil levels
- bacterial counts in the spleen (P. aeruginosa [2]; 24 hours post treatment): reduced bacterial counts in the spleen
- Total protein (P. aeruginosa [2]; BAL): significantly reduced
- lactate dehydrogenase (LDH) levels (P. aeruginosa [2]; BAL): significantly reduced
- neutrophil elastase levels (P. aeruginosa [2]; BAL): significantly reduced
- Macrophage Inflammatory Protein 2 (MIP-2), also known as CXCL2 (P. aeruginosa [2]; BAL cytokine levels): reduced
- interleukin-17 (IL-17) (P. aeruginosa [2]; BAL cytokine levels): reduced
- IL-6 (P. aeruginosa [2]; cytokine levels): reduced
- interleukin-1β (IL-1β) (P. aeruginosa [2]; cytokine levels): reduced
- tumor necrosis factor-α (TNF-α) (P. aeruginosa [2]; cytokine levels): reduced
- lung histology (P. aeruginosa [2]; infected animals): normalization of alveoli
- total weight loss (P. aeruginosa [2]; intranasal 10^7 CFU/ml P. aeruginosa): prevented the total weight loss
- BAL neutrophils, delayed treatment (P. aeruginosa [2]; peptide added 24 hours after infection): reduced
- blood macrophages (E. coli LPS sepsis model): significantly increased blood macrophages
- blood neutrophilia (E. coli LPS sepsis model): significantly reduced blood neutrophilia
- weight loss (E. coli LPS sepsis model): significant prevented weight loss
- pseudovirus infection (DsRed fluorescence) [3]: significantly reduced infection
- leukocyte levels in WT littermate controls (P. aeruginosa POA1): had reduced normalized leukocytes similar to naïve mice
- lung lymphocyte levels (B cells and T cells) [4, 7]: significantly reduced lung lymphocyte levels
- lung monocyte and macrophage levels [4, 7]: normalized lung monocyte and macrophage levels
- viral loads in the lungs and BAL ([4]; after one dose of 1.0 mg/kg): significantly reduced
- BAL neutrophilia [5]: attenuated BAL neutrophilia
- lung damage caused by LPS [5]: significantly reduced lung damage
- weight loss [5]: reduced weight loss
